Results of unrelated studies side by side (data: NIAID ChemDB).

Common to all: growth or infection tests; organism: Vaccinia virus; measure: EC50

Neighbouring rows are from separate reports. Two numbers with a dash give a range or band. ECn is the concentration giving n% inhibition of infection, replication or growth. Blank or dashed fields: not listed here.

structure	strain or isolate	cells	value
Cc1ccc2c(c1)C(=Nc1ccc(S(=O)(=O)Nc3nc(C)cc(C)n3)cc1)C(=O)N2	-	HFF	18 µM
CCn1cc(C(=O)O)c(=O)c2ccc(C)nc21	Lister	HeLa	83 µg/mL
CO[C@H]1/C=C/O[C@@]2(C)Oc3c(C)c(O)c4c(O)c(c(/C=N/NC(=O)CN5CCN(c6ccc(F)cc6)CC5)c(O)c4c3C2=O)NC(=O)/C(C)=C\C=C\[C@H](C)[C@H](O)[C@@H](C)[C@@H](O)[C@@H](C)[C@H](OC(C)=O)[C@@H]1C	-	L929	>50 µg/mL
Nc1ccn([C@H]2C[C@@H](O)[C@H](CO)O2)c(=O)n1	-	VERO B	>10 µM
Nc1ncnc2c1nnn2[C@@H]1O[C@H](CO)[C@@H](O)[C@H]1O	-	VERO	1.5 µM
Nc1ccn(COCCO)c(=O)n1	-	PRK	>400 µg/mL
CCC(Sc1ncnc2c1cnn2CCCCO)C(N)=O	-	E6SM	>400 µg/mL
N#Cc1cn(C2O[C@H](CO)[C@@H](O)[C@H]2O)c(=O)[nH]c1=O	-	Primary rabbit kidney cells	>370 µM
Nc1ccn([C@@H]2O[C@H](CO)[C@@H](O)[C@@H]2O)c(=O)n1	-	Primary rabbit kidney cells	0.04 µg/mL
CCCCCCCCCCC#Cc1c[nH]c(=O)[nH]c1=O	-	HEL	>40 µM
Cc1[nH]c2nc3c(ncn3COCCO[Si](C)(C)C(C)(C)C)c(=O)n2c1C(c1ccccc1)(c1ccccc1)c1ccccc1	-	-	2 µg/mL
CO[C@H]1/C=C/O[C@@]2(C)Oc3c(C)c(O)c4c(O)c(c(/C=N/NC(=O)CN5CCN(c6ccc(C)cc6)CC5)c(O)c4c3C2=O)NC(=O)/C(C)=C\C=C\[C@H](C)[C@H](O)[C@@H](C)[C@@H](O)[C@@H](C)[C@H](OC(C)=O)[C@@H]1C	-	L929	>50 µg/mL
C#Cc1nc2c(ncn2[C@@H]2O[C@H](CO)[C@@H](O)[C@H]2O)c(=O)[nH]1	-	HFF	>20 µg/mL
O=c1[nH]cnc2c1ncn2COCCO	-	PRK	>400 µg/mL
CCOC(=O)CSc1nnc(-c2cn(-c3ccccc3)nc2-c2ccccc2)n1N	-	HEL	>80 µg/mL
Cn1cc(NC(=O)c2cc(NC(=O)c3cc(NC(=O)c4cc(NC(=O)c5cc(NC=O)cn5C)cn4C)cn3C)cn2C)cc1C(=O)NCCC(=N)N	Noguchi	BSC-1	<10 µg/mL
Cc1nc2c(=O)[nH]c(N)nc2n1COCCO	-	PRK	>400 µg/mL
Nc1ncnc2c1ncn2C[C@@H](CO)OCP(=O)(O)O	-	ESM	0.7 µg/mL
Nc1nc2c(ncn2CCCC(O)CF)c(=O)[nH]1	-	ESM	>400 µg/mL
O=c1[nH]c(=O)n(COCCO)cc1I	-	PRK	>400 µg/mL
Cc1cc(C)nc(NS(=O)(=O)c2ccc(N=C3C(=O)Nc4ccc(Cl)cc43)cc2)n1	-	HFF	>300 µM
CCCCn1cnc(=N)c2[nH]cnc21	-	BSC-1	>100 µg/mL
CCC(Sc1ncnc2c1cnn2COCCO)C(N)=O	-	E6SM	>400 µg/mL
Cc1cn([C@H]2C[C@H](N=[N+]=[N-])[C@@H]([C@@H](C)O)O2)c(=O)[nH]c1=O	-	-	300 µg/mL
O=c1c2ncn(COCCO)c2[nH]c2ncc(C(c3ccccc3)(c3ccccc3)c3ccccc3)n12	-	-	>16 µg/mL
Nc1ncnc2c1ncn2[C@H]1C[C@@H](O)[C@H](CO)O1	-	VERO B	>1000 µM
CC(=O)Nn1c(-c2cn(-c3ccccc3)nc2-c2ccccc2)n[nH]c1=S	-	HEL	240 µg/mL
NC(=O)CSc1ncnc2c1cnn2COCC(O)CO	-	E6SM	>400 µg/mL
Nc1ccn([C@@H]2C=C(CO)[C@@H](O)[C@H]2O)c(=O)n1	Copenhagen	-	0.12 µg/mL
O=c1[nH]c(=O)n([C@H]2C[C@H](O)[C@@H](CO)O2)cc1C(F)(F)F	-	Primary rabbit kidney cells	0.33 µM
Nc1nccc2c1ncn2[C@H]1CC[C@@H](CO)O1	-	VERO	>429 µM
Cc1ccc(Cn2cnc(=N)c3[nH]cnc32)cc1	-	BSC-1	>50 µg/mL
O=c1[nH]c(=O)n([C@H]2C[C@H](O)[C@@H](CO)O2)cc1I	-	HSF	0.2 µg/mL
Nc1nc2c(ncn2[C@H]2COC[C@@H](CO)O2)c(=O)[nH]1	-	L1210	>30 µM
Nc1nc(=O)n([C@@H]2C[C@H](CO)[C@@H](O)C2)cc1/C=C/Br	-	Primary rabbit kidney cells	200 µg/mL
CO[C@H]1/C=C/O[C@@]2(C)Oc3c(C)c(O)c4c(O)c(c(/C=N/NC(=O)CN5CCN(c6ccc(Br)cc6)CC5)c(O)c4c3C2=O)NC(=O)/C(C)=C\C=C\[C@H](C)[C@H](O)[C@@H](C)[C@@H](O)[C@@H](C)[C@H](OC(C)=O)[C@@H]1C	-	L929	>50 µg/mL
CCCCCCCCCC(=O)O[C@@H]1[C@@H]2Oc3nc(=N)ccn3[C@@H]2O[C@@H]1CO	IHD	HeLa	0.062 µg/mL
COc1ccc(-c2cn3c(=O)c4ncn(COC(CO)CO)c4nc3[nH]2)cc1	-	-	>80 µg/mL
Nc1ncnc2c1ncn2[C@@H]1C[C@H](NC=O)[C@@H](O)[C@H]1O	-	HFF	>100 µg/mL
Nc1nc(=O)n([C@@H]2C=C(CO)[C@@H](O)[C@H]2O)cc1Br	Copenhagen	-	>100 µg/mL
CCCCCCCC#Cc1cn(S(=O)(=O)c2ccc(C)cc2)c(=O)[nH]c1=O	-	HEL	>200 µM
Cc1cn(CCCC(O)CF)c(=O)[nH]c1=O	-	ESM	>400 µg/mL
COc1ccc(-c2[nH]c3nc4c(ncn4COCCO)c(=O)n3c2-c2ccc(C(c3ccccc3)c3ccccc3)cc2)cc1	-	-	>16 µg/mL
CO[C@H]1/C=C/O[C@@]2(C)Oc3c(C)c(O)c4c(O)c(c(/C=N/NC(=O)CN5CCN(c6ccc(NC(C)=O)cc6)CC5)c(O)c4c3C2=O)NC(=O)/C(C)=C\C=C\[C@H](C)[C@H](O)[C@@H](C)[C@@H](O)[C@@H](C)[C@H](OC(C)=O)[C@@H]1C	-	L929	>50 µg/mL
NC[C@H]1C[C@@H](n2cnc3c(N)ncnc32)[C@H](O)[C@@H]1O	-	HFF	76.5 µg/mL
CO[C@H]1/C=C/O[C@@]2(C)Oc3c(C)c(O)c4c(O)c(c(/C=N/NC(=O)CN5CCN(c6ccc(C(C)(C)C)cc6)CC5)c(O)c4c3C2=O)NC(=O)/C(C)=C\C=C\[C@H](C)[C@H](O)[C@@H](C)[C@@H](O)[C@@H](C)[C@H](OC(C)=O)[C@@H]1C	-	L929	>50 µg/mL
Nc1nccc2c1ncn2[C@H]1C[C@H](O)[C@@H](CO)O1	-	VERO	>397 µM
NC1=CC(c2ccccc2)=Nn2c(nnc2-c2cn(-c3ccccc3)nc2-c2ccccc2)S1	-	HEL	>80 µg/mL
O=c1ccn([C@H]2C[C@@H](O)[C@H](CO)O2)c(=O)[nH]1	-	VERO B	>100 µM
CN(C)Cc1cn([C@H]2C[C@H](O)[C@@H](CO)O2)c(=O)[nH]c1=O	-	HSF	>200 µg/mL
Nc1nccc2c1ncn2[C@@H]1O[C@H](CO)[C@@H](O)[C@H]1O	-	VERO	14 µM
CCCc1cn([C@H]2C[C@H](O)[C@@H](COP(=O)(O)O)O2)c(=O)[nH]c1=O	-	BSC-1	>797 µg/mL
Nc1nc(=O)ccn1COCCO	-	PRK	>400 µg/mL
CCc1ccc(N2CCN(CC(=O)N/N=C/c3c4c(O)c5c(O)c(C)c6c(c5c3O)C(=O)[C@@](C)(O/C=C/[C@H](OC)[C@@H](C)[C@@H](OC(C)=O)[C@H](C)[C@H](O)[C@H](C)[C@@H](O)[C@@H](C)/C=C/C=C(/C)C(=O)N4)O6)CC2)cc1	-	L929	>50 µg/mL
N=c1ncn(Cc2ccccc2)c2nc[nH]c12	-	BSC-1	>100 µg/mL
CC(=O)N1C(=O)C(=Nc2ccc(S(=O)(=O)Nc3nc(C)cc(C)n3)cc2)c2ccccc21	-	HFF	40 µM
Nc1nc2c(ncn2CCOCP(=O)(O)O)c(=O)[nH]1	Copenhagen	HFF	5.4 µM
Cn1cc(NC(=O)c2cc(NC(=O)CN=C(N)N)cn2C)c(C(=O)NCCC(=N)N)c1	Noguchi	BSC-1	25–50 µg/mL
Nc1ncnc2c1ncn2[C@H]1[C@H](O)[C@H](F)[C@@H](CO)[C@@H]1O	-	HEP-2	63 µM
CCOC(=O)C1Sc2nnc(-c3cn(-c4ccccc4)nc3-c3ccccc3)n2NC1=O	-	HEL	>80 µg/mL
CO[C@H]1/C=C/O[C@@]2(C)Oc3c(C)c(O)c4c(O)c(c(/C=N/NC(=O)CN5CCN(c6ccccc6)CC5)c(O)c4c3C2=O)NC(=O)/C(C)=C\C=C\[C@H](C)[C@H](O)[C@@H](C)[C@@H](O)[C@@H](C)[C@H](OC(C)=O)[C@@H]1C	-	L929	>50 µg/mL
CCCCCCCC(=O)O[C@H]1[C@H](O)[C@H](n2ccc(N)nc2=O)O[C@@H]1CO	IHD	HeLa	0.019 µg/mL
CN1CCN(Cc2cn([C@H]3C[C@H](O)[C@@H](CO)O3)c(=O)[nH]c2=O)CC1	-	HSF	≥200 µg/mL
CCCCc1cc2cnc(=O)[nH]c2o1	-	HEL	>200 µM
N=c1ncn(Cc2cccc([N+](=O)[O-])c2)c2nc[nH]c12	-	BSC-1	>12 µg/mL
Oc1cccc(O)c1-c1c2nc(c(-c3c(O)cccc3O)c3ccc([nH]3)c(-c3c(O)cccc3O)c3nc(c(-c4c(O)cccc4O)c4ccc1[nH]4)C=C3)C=C2	IHD-J (EEV)	BSC-40	0.32 µg/mL
O=c1[nH]c(C#CCF)nc2c1ncn2[C@@H]1O[C@H](CO)[C@@H](O)[C@H]1O	-	HFF	>20 µg/mL
CCc1cn([C@H]2C[C@H](O)[C@@H](COP(=O)(O)O)O2)c(=O)[nH]c1=O	-	HEP-2	8.2 µg/mL
O=c1[nH]c(=O)n([C@H]2C[C@H](O)[C@@H](CO)O2)cc1-c1cc(-c2ccc(Cl)cc2)no1	-	E6SM	>40 µg/mL
CCCCCCCC#Cc1c[nH]c(=O)[nH]c1=O	-	HEL	>40 µM
CCCc1cn([C@H]2C[C@H](O)[C@@H](CO)O2)c(=O)[nH]c1=O	-	Primary rabbit kidney cells	≥200 µg/mL

The first 4 rows once more:

| structure | strain or isolate | cells | value |
|---|---|---|---|
| Cc1ccc2c(c1)C(=Nc1ccc(S(=O)(=O)Nc3nc(C)cc(C)n3)cc1)C(=O)N2 | - | HFF | 18 µM |
| CCn1cc(C(=O)O)c(=O)c2ccc(C)nc21 | Lister | HeLa | 83 µg/mL |
| CO[C@H]1/C=C/O[C@@]2(C)Oc3c(C)c(O)c4c(O)c(c(/C=N/NC(=O)CN5CCN(c6ccc(F)cc6)CC5)c(O)c4c3C2=O)NC(=O)/C(C)=C\C=C\[C@H](C)[C@H](O)[C@@H](C)[C@@H](O)[C@@H](C)[C@H](OC(C)=O)[C@@H]1C | - | L929 | >50 µg/mL |
| Nc1ccn([C@H]2C[C@@H](O)[C@H](CO)O2)c(=O)n1 | - | VERO B | >10 µM |